## RC index of single-base changes in HIV-1 integrase

The measurements come from Al-Mawsawi et al. 2014 (doi:10.1186/s12977-014-0124-6).

Protein: integrase of HIV-1 NL4-3, numbered from its first residue. The source prints no sequence; the chain below is taken from UniProt P12497, a closely related isolate, and fits the source at the 252 positions it covers.
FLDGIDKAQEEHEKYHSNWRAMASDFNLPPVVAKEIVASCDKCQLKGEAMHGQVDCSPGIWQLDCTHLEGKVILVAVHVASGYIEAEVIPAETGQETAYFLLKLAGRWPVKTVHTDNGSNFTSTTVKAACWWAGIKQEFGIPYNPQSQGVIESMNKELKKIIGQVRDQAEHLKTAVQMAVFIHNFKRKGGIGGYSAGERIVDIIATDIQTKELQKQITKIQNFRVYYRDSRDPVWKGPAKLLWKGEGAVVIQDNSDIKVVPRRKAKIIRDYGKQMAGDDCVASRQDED
Effects on overlapping genes or RNA elements are not listed.

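Seven fragments of pNL4-3 were mutated by error-prone PCR, and each virus pool was passaged in CEM T cells. The RC index is the frequency of a change after passage round 2 divided by its frequency in the plasmid library.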

A higher RC index is a better tolerated change; approximate classes are lethal up to 0.1, attenuated to 0.2, tolerated above.
Substitutions are written as wild-type residue, site number, new residue.
Input reads are the counts in the plasmid library.

mutation,base,input reads,RC
L2S,T4234C,322,0.0700
D6E,T4247A,415,0.0326
A8V,C4252T,579,0.0818
E10D,A4259C,102,0.0221
M22K,T4294A,483,0.0280
S24I,G4300T,232,0.0680
S24R,T4301A,389,0.0406
D25V,A4303T,613,0.0294
F26L,T4305C,216,0.0939
P29S,C4314T,496,0.0818
V31L,G4320T,124,0.109
V32A,T4324C,382,0.0826
E35V,A4333T,338,0.0467
C43Y,G4357A,407,0.0997
E48V,A4372T,247,0.0566
A49D,C4375A,140,0.0570
Q62H,G4415T,233,0.0600
D64G,A4420G,203,0.0393
D64E,T4421A,458,0.0392
L74M,T4449A,646,0.0247
A80T,G4467A,460,0.143
S81I,G4471T,168,0.0475
S81R,T4472A,310,0.0193
Y83H,T4476C,189,0.116
E87K,G4488A,231,0.294
V88I,G4491A,268,0.328
I89F,A4494T,292,0.0547
I89T,T4495C,394,0.0912
K103R,A4537G,173,0.0572
A105T,G4542A,533,0.100
G106A,G4546C,34,0.116
R107G,A4548G,285,0.0625
R107T,G4549C,71,0.0279
W108S,G4552C,52,0.114
T115K,C4573A,116,0.0682
N117D,A4578G,346,0.0514
T124I,C4600T,954,0.191
V126L,G4605C,72,0.0824
K136N,G4637C,41,0.386
F139S,T4645C,334,0.0651
F139L,T4646G,51,0.116
Q146L,A4666T,438,0.0245
Q146H,A4667T,413,0.0519
G149E,G4675A,296,0.670
E152G,A4684G,324,0.0386
E152V,A4684T,207,0.0431
S153T,T4686A,280,0.0383
S153P,T4686C,192,0.102
N155D,A4692G,211,0.0339
K156R,A4696G,373,0.0479
Q164H,G4721C,96,0.0930
A175S,G4752T,265,0.0674
V176A,T4756C,240,0.141
V180L,G4767T,254,0.0914
F181L,T4770C,420,0.0383
I182F,A4773T,367,0.0681
R187S,A4790T,167,0.0537
K188I,A4792T,371,0.0725
K188N,A4793T,583,0.0369
Y194F,A4810T,370,0.0390
I204T,T4840C,300,0.0661
I208K,T4852A,329,0.0493
K211T,A4861C,35,0.0515
K211I,A4861T,433,0.0458
Q214R,A4870G,387,0.0466
I217T,T4879C,314,0.0229
T218A,A4881G,195,0.0554
T218I,C4882T,335,0.183
K219R,A4885G,130,0.0554
I220N,T4888A,218,0.0165
S230T,G4918C,80,0.0450
D232V,A4924T,457,0.0158
A239T,G4944A,416,0.0971
K240T,A4948C,92,0.0488
G245D,G4963A,407,0.0937
V250L,G4977C,117,0.0384
Q252K,C4983A,60,0.0748
Q252R,A4984G,343,0.0589
I257M,A5000G,190,0.0827
V260L,G5007T,137,0.0655
R262S,A5015T,199,0.0226
K264R,A5020G,152,0.0591
R269W,A5034T,346,0.0519

Clones carried about five changes per kilobase, which can drag down the index of neutral changes.
An index over 1, which the authors read as above wild type, was rare (1.9% of all changes in the genome).
Nucleotide positions follow pNL4-3.